Test results as given in PubChem BioAssay AID1376 (SRMLSC, 2008).
Only a part is listed here, and it is no random draw. Results with a measured potency or affinity are listed apart. Some salts and complexes are drawn in separate pieces, as the source files them; their charges need not balance. Active and inactive are the calls of the source. Rule as the data show it: active = inhibition above about 13%; inconclusive = no clear call, values can overlap the other calls; inactive = below that.

Sequences of proteins named here, by UniProt entry; tags and fusion partners are left off.
UniProt P9WMN3, whole entry: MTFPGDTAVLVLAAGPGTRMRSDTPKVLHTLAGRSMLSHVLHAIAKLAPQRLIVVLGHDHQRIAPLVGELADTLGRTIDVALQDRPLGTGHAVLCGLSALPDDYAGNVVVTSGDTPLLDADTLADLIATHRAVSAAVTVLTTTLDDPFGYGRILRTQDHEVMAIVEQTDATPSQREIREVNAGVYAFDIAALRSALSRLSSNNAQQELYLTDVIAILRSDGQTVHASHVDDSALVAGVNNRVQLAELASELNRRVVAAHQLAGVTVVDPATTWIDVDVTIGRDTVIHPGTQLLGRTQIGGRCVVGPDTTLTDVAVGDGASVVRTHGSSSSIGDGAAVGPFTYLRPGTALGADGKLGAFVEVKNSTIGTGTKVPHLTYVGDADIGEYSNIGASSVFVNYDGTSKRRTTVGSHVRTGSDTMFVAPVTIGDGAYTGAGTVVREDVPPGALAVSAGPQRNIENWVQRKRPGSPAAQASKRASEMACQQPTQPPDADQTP

Biological target: Bifunctional protein GlmU (Mycobacterium tuberculosis (strain ATCC 25618 / H37Rv)) (UniProt P9WMN3)
Experiment: inhibition of mycobacterial GlmU enzyme – biochemical, glucosamine-1-phosphate acetyltransferase (AID 1376);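 also: 0% = complete reaction with vehicle and 100% = reaction without substrate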
Conditions: M. tuberculosis GlmU acetyltransferase enzyme assay; stronger effect = higher value;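 tested at 30 µM in the primary screen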

SMILES | inhibition
CCN(CC)CCCOC(=O)C(O)(c1ccccc1)c1ccccc1 | inactive: 0.37%
CCOC(=O)c1ccc(NP(C)(=O)Oc2ccccc2)cc1 (configuration not stated) | inactive: -3.66%
COc1ccccc1OP(C)(=O)Nc1ccc(C)cc1 (configuration not stated) | inactive: 0.96%
COc1ccccc1OP(C)(=O)Nc1cc(Cl)ccc1C (configuration not stated) | inactive: 4.95%
Cc1cc(C)cc(OP(C)(N)=O)c1 (configuration not stated) | inactive: -3.31%
CC(C)(C)c1ccc(OP(C)(=O)Nc2ccc(SC(F)(F)F)cc2)cc1 (configuration not stated) | inactive: 0.52%
Cc1cccc(C)c1OP(C)(N)=O (configuration not stated) | inactive: 2.87%
O=[N+]([O-])c1ccc2c(c1)C=Nc1ccccc1O2 | inactive: -2.18%
CP(=S)(Nn1cnnc1)Oc1ccccc1 (configuration not stated) | inactive: -6.64%
COc1ccccc1OP(C)(=O)Nc1ccccc1 (configuration not stated) | inactive: 0.42%
CP(=O)(Nc1ccccc1Br)Oc1ccccc1 (configuration not stated) | inactive: -9.04%
CCOP(C)(=S)SCC(=O)NC(C)C(=O)O (configuration not stated) | inactive: 3.08%
CCOC(=O)c1ccc(NP(C)(=O)Oc2ccc(OC)cc2)cc1 (configuration not stated) | inactive: 0.77%
CP(=O)(Nc1ccccn1)Oc1ccc(Cl)cc1 (configuration not stated) | inactive: 2.07%
CP(=O)(Nc1ccc(SC(F)(F)F)cc1)Oc1ccc(Cl)cc1 (configuration not stated) | inactive: -1.84%
Cc1cccc(C)c1OP(C)(=O)Nc1ccc(SC(F)(F)F)cc1 (configuration not stated) | inactive: -1.33%
CP(=O)(Oc1ccccc1)OC(c1ccccc1)C(F)(F)F (configuration not stated) | inactive: 0.4%
CP(=O)(NC(=O)Nc1ccccc1)Oc1ccccc1 (configuration not stated) | inactive: 0.65%
CCc1ccc(OP(C)(=O)N2CCN(c3ccc([N+](=O)[O-])cc3)CC2)cc1 (configuration not stated) | inactive: 2.23%
Cc1cc(C)cc(OP(C)(=O)Nc2ccc(SC(F)(F)F)cc2)c1 (configuration not stated) | inactive: -2.34%
Cc1nc2ccc3ccccc3c2s1.O=[N+]([O-])c1cc([N+](=O)[O-])c(O)c([N+](=O)[O-])c1 | inactive: 0.75%

SMILES | inhibition
O=[N+]([O-])c1cc([N+](=O)[O-])c(-n2nnc3ccccc32)c([N+](=O)[O-])c1 | inactive: 9.26%
CN1CCCCC1COC(=O)C1(O)c2ccccc2CCc2ccccc21 (configuration not stated) | inactive: -1.31%
COc1ccccc1OP(C)(=O)Nc1c(C)cccc1C (configuration not stated) | inactive: 6.4%
CCCOc1ccc(NP(C)(=O)Oc2ccc(Cl)cc2)cc1 (configuration not stated) | inactive: -0.69%
CP(=O)(Nc1ccc(SC(F)(F)F)cc1)Oc1ccccc1 (configuration not stated) | inactive: 0.31%
O=[N+]([O-])c1cc([N+](=O)[O-])c(Nc2nnnn2CCO)c([N+](=O)[O-])c1 | inactive: 0.03%
CCOC(=O)C(CC)C1=NC(C)(C)Cc2ccccc21.O=[N+]([O-])c1cc([N+](=O)[O-])c(O)c([N+](=O)[O-])c1 (configuration not stated) | inactive: -2.88%
CC1=NCCc2c1[nH]c1ccccc21.O=[N+]([O-])c1cc([N+](=O)[O-])c(O)c([N+](=O)[O-])c1 | inactive: -10.8%
O=C(O)c1cccc(Nc2c([N+](=O)[O-])cc([N+](=O)[O-])cc2[N+](=O)[O-])c1 | inactive: -5%
Cc1cc(C)cc(OP(C)(=O)Nc2ccccn2)c1 (configuration not stated) | inactive: 4.25%
CP(=O)(Nc1cccc(Br)c1)Oc1ccccc1 (configuration not stated) | inactive: -2.21%
Cc1ccc(C)c(NP(C)(=O)Oc2ccccc2)c1 (configuration not stated) | inactive: -0.69%
COc1ccccc1OP(C)(=O)Nc1cccc(Br)c1 (configuration not stated) | inactive: -5.32%
Cc1cc(C)cc(OP(C)(=O)Nc2ccc(C)cc2C)c1 (configuration not stated) | inactive: 4.16%
CCOC(=O)c1ccc(NP(C)(=O)Oc2cc(C)cc(C)c2)cc1 (configuration not stated) | inactive: 2.72%
O=C(OCCN1CCN(CCOCc2ccccc2)CC1)C(O)(c1ccccc1)c1ccccc1 | inactive: 1.02%
O=C(OC1CN2CCC1CC2)c1ccc([N+](=O)[O-])cc1 (configuration not stated) | inactive: -3.65%
COc1ccc2c(c1O)-c1c(O)c(OC)cc3c1[C@H](C2)[N+](C)(C)CC3.O=[N+]([O-])c1cc([N+](=O)[O-])c([O-])c([N+](=O)[O-])c1[O-] | inactive: 5.78%
CC(C)c1ccc(OP(C)(=O)Nc2ccc(SC(F)(F)F)cc2)cc1 (configuration not stated) | inactive: -4.54%
CP(=O)(Nc1ccccc1F)Oc1ccccc1 (configuration not stated) | inactive: 0.77%
CCN(CC)CCCOC(=O)C(O)(c1ccccc1)C1CCCCC1 (configuration not stated) | inactive: 5.53%

SMILES | inhibition
CCCCCOc1ccc(NP(C)(=O)Oc2ccc(Cl)cc2Cl)cc1 (configuration not stated) | inactive: 3.49%
CP(=O)(Nc1ccccc1)Oc1ccc(F)cc1 (configuration not stated) | inactive: -2.39%
COc1ccc(OP(C)(=O)Nc2ccc(SC(F)(F)F)cc2)cc1 (configuration not stated) | inactive: -0.39%
CCOC(=O)c1ccc(NP(C)(=O)Oc2ccc(F)cc2)cc1 (configuration not stated) | inactive: 1.54%
O=[N+]([O-])c1cc([N+](=O)[O-])c(NCC2CCS(=O)(=O)C2)c([N+](=O)[O-])c1 (configuration not stated) | inactive: -7.01%
Cc1cc(-c2cccc3ccccc23)c(C)cn1.O=[N+]([O-])c1cc([N+](=O)[O-])c(O)c([N+](=O)[O-])c1 | inactive: 7.42%
O=[N+]([O-])c1ccc(OP2(=O)COCCO2)cc1 (configuration not stated) | inactive: 7.79%
COc1ccc(OP(C)(=O)Nc2cccc(Br)c2)cc1 (configuration not stated) | inactive: -1.3%
COc1ccc(NP(C)(=O)Oc2ccccc2OC)cc1 (configuration not stated) | inactive: 1.1%
CN(C)CCOC(=O)C(O)(c1ccccc1)C1CCCCC1 (configuration not stated) | inactive: -3.19%
CP(=O)(Nc1ccc2c(c1)OCCO2)Oc1ccccc1 (configuration not stated) | inactive: -1.67%
Cc1ccccc1NP(C)(=O)Nc1ccccc1C | inactive: 2.94%
CP(=O)(Nc1ccc(SC(F)(F)F)cc1)Oc1ccc(F)cc1 (configuration not stated) | inactive: -0.46%
CCOP(C)(=S)SCC(=O)NC(C)(CC)C(=O)O (configuration not stated) | inactive: -0.38%
CP(=O)(Nc1ccc(Cl)cc1)Oc1ccc(F)cc1 (configuration not stated) | inactive: -6.6%
COc1ccccc1OP(C)(=O)Nc1ccccc1Br (configuration not stated) | inactive: 2.49%
CC(C)(C)c1ccc(OP(C)(=O)O)cc1 | inactive: 1.69%
CN(C)C(=O)c1c([N+](=O)[O-])cc([N+](=O)[O-])cc1[N+](=O)[O-] | inactive: 6.71%
CCN(CC)CC(O)COC(=O)C(O)(c1ccccc1)C1CCCCC1 (configuration not stated) | inactive: -1.68%
COc1ccc(OP(C)(=O)Nc2ccc(Br)cc2)cc1 (configuration not stated) | inactive: 1.58%
CP(=O)(Oc1ccccc1)N1CCOC1=O (configuration not stated) | inactive: 1.58%

SMILES | inhibition
CCc1ccc(OP(C)(=O)Nc2cccnc2)cc1 (configuration not stated) | inactive: 4.58%
COc1ccccc1OP(C)(=O)Nc1c(C)n(C)n(-c2ccccc2)c1=O (configuration not stated) | inactive: 2.08%
O=C(OCCCN1CCCC1)C(O)(c1ccccc1)C1CCCCC1 (configuration not stated) | inactive: 1.32%
CP(=O)(OC12CC3CC(CC(C3)C1)C2)OC12CC3CC(CC(C3)C1)C2 | inactive: -4.68%
CCOC(=O)c1ccc(NP(C)(=O)Oc2ccc(Cl)cc2)cc1 (configuration not stated) | inactive: -1.26%
Cc1nc2ccc3ccccc3c2o1.O=[N+]([O-])c1cc([N+](=O)[O-])c(O)c([N+](=O)[O-])c1 | inactive: 1.49%
CP(=O)(Nc1ccc(Cl)cc1Cl)Oc1ccccc1 (configuration not stated) | inactive: 0.71%
CP(=O)(OCCOc1ccccc1)OCCOc1ccccc1 | inactive: 6.2%
Cc1cc(C)cc(OP(C)(=O)Nc2cccc(C(F)(F)F)c2)c1 (configuration not stated) | inactive: -1.28%
COc1ccc(OP(C)(=O)Nc2ccccc2Br)cc1 (configuration not stated) | inactive: -4.51%
COc1ccccc1OP(C)(=O)Nc1ccc(C)c(C)c1 (configuration not stated) | inactive: -1.23%
Cc1c(NP(C)(=O)Oc2ccc(C(C)C)cc2)c(=O)n(-c2ccccc2)n1C (configuration not stated) | inactive: 5.45%
O=[N+]([O-])c1cc([N+](=O)[O-])c(Nc2ccccn2)c([N+](=O)[O-])c1 | inactive: 7.74%
CCc1ccc(OP(C)(=O)O)cc1 | inactive: -0.36%
CP(=O)(Nc1ccccn1)Oc1ccccc1 (configuration not stated) | inactive: 3.89%
COc1ccccc1OP(C)(=O)Nc1ccc(C)cc1C (configuration not stated) | inactive: 1.06%
COc1ccccc1OP(C)(=O)Nc1ccc(Br)cc1 (configuration not stated) | inactive: 1.01%
CN(C)CCOC(=O)C(O)(c1ccccc1)C1CCCC1 (configuration not stated) | inactive: 2.39%
COc1ccc(OP(C)(=O)Nc2ccccn2)cc1 (configuration not stated) | inactive: -2.69%
